Source: publication PMC9450471 (Computational Biology and Chemistry, 2022)
Values joined by “and” are separate entries in the source; they are usually repeats but may differ in a detail not shown here. Identical values can stand only once.

Target: SARS-CoV-2 RdRp (nsp12/7/8 complex) in the presence of ExoN (nsp14/10 complex, wild type) (Severe acute respiratory syndrome coronavirus 2, UniProt P0DTD1, P4715L)
Assay: cell-based
Set-up: species or system SARS-CoV-2 Omicron variant B.1.1.529/BA.5 sublineage
Conditions: Inhibition of SARS-CoV-2 RdRp in vitro (EC50) Nsp12 + Nsp14

O=c1[nH]cnc2c([C@@H]3N[C@H](CO)[C@@H](O)[C@H]3O)c[nH]c12 [Forodesine]
EC50: ~317 nM and 317 nM
